Values from PubChem BioAssay AID624099 (ICCB-Longwood, 2012).

- Aim: 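Host factors E2 relies on to silence an HPV18 LCR reporter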 (primary screen)
- Cells: human C33A cervical carcinoma cells (HPV-negative) stably expressing BPV1 E2 and an HPV18 LCR luciferase reporter
- Reagent: siRNA pool against human genes, 40 nM
- Duration: 72 h
- Detection: 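Per-well luciferase luminescence, z-scored on each plate against the plate mean and SD with control wells left out, then averaged across three replicate plates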
- Direction: mean z-score and z-score: higher = stronger reporter signal, weaker E2 silencing
- Rule for the call: 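Mean z ≥ 2 together with z ≥ 2 in two or more of the three replicates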
The whole screen tested about 21,000 reagents; this is an unselected part. Over the whole deposit, 497 (2.4%) got an active call. 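Higher z means weaker E2 silencing; only reporter increases were scored, and knock-downs that hurt cell survival may mask genuine repressor factors.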 Reagents against one gene are numbered here.

COBLL1 (cordon-bleu WH2 repeat protein like 1): mean z-score = -1.07; z-score, replicate A = -0.92; z-score, replicate B = -1.16; z-score, replicate C = -1.14; call = inactive
CCDC32 (coiled-coil domain containing 32): mean z-score = 0.26; z-score, replicate A = 0.2; z-score, replicate B = -0.15; z-score, replicate C = 0.72; call = inactive
ACP4 (acid phosphatase 4): mean z-score = -0.16; z-score, replicate A = 0; z-score, replicate B = -0.32; z-score, replicate C = -0.17; call = inactive
LOC401175 (retired record): mean z-score = -0.25; z-score, replicate A = -0.09; z-score, replicate B = -0.52; z-score, replicate C = -0.14; call = inactive
KCNK2 (potassium two pore domain channel subfamily K member 2): mean z-score = 0.9; z-score, replicate A = 0.89; z-score, replicate B = 0.62; z-score, replicate C = 1.19; call = inactive
SPATA31J1 (SPATA31 subfamily J member 1): mean z-score = -0.39; z-score, replicate A = -0.24; z-score, replicate B = -0.79; z-score, replicate C = -0.14; call = inactive
PIP5K1B (phosphatidylinositol-4-phosphate 5-kinase type 1 beta): mean z-score = -0.7; z-score, replicate A = -0.73; z-score, replicate B = -1.28; z-score, replicate C = -0.08; call = inactive
NMNAT2 (nicotinamide nucleotide adenylyltransferase 2): mean z-score = -0.51; z-score, replicate A = -0.45; z-score, replicate B = -0.62; z-score, replicate C = -0.47; call = inactive
DTD1 (D-aminoacyl-tRNA deacylase 1): mean z-score = -0.04; z-score, replicate A = -0.12; z-score, replicate B = -0.08; z-score, replicate C = 0.08; call = inactive
FOXI2 (forkhead box I2): mean z-score = 3.11; z-score, replicate A = 2.27; z-score, replicate B = 3.76; z-score, replicate C = 3.29; call = active
LOC219797 (retired record): mean z-score = 1.9; z-score, replicate A = 1.98; z-score, replicate B = 1.45; z-score, replicate C = 2.26; call = inactive
PLXNA2 (plexin A2) #1: mean z-score = 0.58; z-score, replicate A = 0.71; z-score, replicate B = 0.49; z-score, replicate C = 0.54; call = inactive
PLXNA2 (plexin A2) #2: mean z-score = 1.37; z-score, replicate A = 1.17; z-score, replicate B = 1.71; z-score, replicate C = 1.23; call = inactive

Ordered by “z-score, replicate A” (descending): 2 of the entries above
SPATA31J1 (SPATA31 subfamily J member 1): mean z-score = -0.39; z-score, replicate A = -0.24; z-score, replicate B = -0.79; z-score, replicate C = -0.14; call = inactive
PIP5K1B (phosphatidylinositol-4-phosphate 5-kinase type 1 beta): mean z-score = -0.7; z-score, replicate A = -0.73; z-score, replicate B = -1.28; z-score, replicate C = -0.08; call = inactive

Additional results follow.
ZNF598 (zinc finger protein 598, E3 ubiquitin ligase): mean z-score = -1.37; z-score, replicate A = -1.53; z-score, replicate B = -1.16; z-score, replicate C = -1.42; call = inactive
CLASRP (CLK4 associating serine/arginine rich protein): mean z-score = -0.37; z-score, replicate A = -0.3; z-score, replicate B = -0.4; z-score, replicate C = -0.41; call = inactive
AGPS-DT (AGPS divergent transcript): mean z-score = -0.12; z-score, replicate A = -0.44; z-score, replicate B = 0.04; z-score, replicate C = 0.03; call = inactive
DNAH3 (dynein axonemal heavy chain 3): mean z-score = 0.95; z-score, replicate A = 0.95; z-score, replicate B = 1.2; z-score, replicate C = 0.7; call = inactive
ARHGAP36 (Rho GTPase activating protein 36): mean z-score = -0.08; z-score, replicate A = -0.24; z-score, replicate B = 0.1; z-score, replicate C = -0.1; call = inactive
APOB (apolipoprotein B): mean z-score = -0.53; z-score, replicate A = -0.18; z-score, replicate B = -0.8; z-score, replicate C = -0.63; call = inactive
LOC400969 (retired record): mean z-score = 0.4; z-score, replicate A = 0.31; z-score, replicate B = 0.58; z-score, replicate C = 0.3; call = inactive
LMOD3 (leiomodin 3): mean z-score = 0.52; z-score, replicate A = 0.56; z-score, replicate B = 0.56; z-score, replicate C = 0.45; call = inactive
